A mixed list of measured activities; the numbers were collected in NIAID ChemDB.

All rows: growth or infection tests; organism: Candida parapsilosis; method: broth dilution; endpoint: MIC

Lines come from different laboratories, so protocols vary. An empty or dashed field is not shown.

compound | conditions | strain | result
O=C(CCn1ccnc1)c1cccc(C(O)c2ccc(Cl)cc2)c1 |  | RTCC 1079 | 64 µg/mL
Cc1nn2c(-c3ccncc3)nnc2sc1=NNc1ccc(Br)cc1 |  | ATCC 22019 | 12.5 µg/mL
CCC(C)n1ncn(-c2ccc(N3CCN(c4ccc(OC[C@H]5CO[C@](Cn6cncn6)(c6ccc(Cl)cc6Cl)O5)cc4)CC3)cc2)c1=O |  | ATCC 22019 | 0.0625 µg/mL
Cc1ccc(N2N=C(c3c[nH]c4ccccc34)CC2c2cc(Cl)ccc2Cl)cc1 |  | NRRL Y-12696 | 100 µg/mL
O=C(CCn1ccnc1)c1ccc(Cl)cc1 |  | RTCC 1079 | >64 µg/mL
Cc1ccc(N2N=C(c3c[nH]c4ccccc34)CC2c2ccc(Cl)cc2Cl)cc1 |  | NRRL Y-12696 | 200 µg/mL
C[C@H]1[C@H](O)[C@@H](C)/C=C/C=C/C=C/C=C/C=C/C=C/C=C/[C@H](O[C@@H]2O[C@H](C)[C@@H](O)[C@H](N)[C@@H]2O)C[C@@H]2O[C@](O)(C[C@@H](O)C[C@@H](O)CC[C@H](O)[C@@H](O)C[C@@H](O)CC(=O)O[C@H]1C)C[C@H](O)[C@H]2C(=O)O | 24 h | NBRC 1396 | 0.5 µg/mL
CCCCCCCCCCCCCCCC(=O)NC(CCCCN)C(=O)NC(CCCCN)C(N)=O |  | ATCC 4874 | 2 µg/mL
Cc1coc2c1C(=O)[C@@H]1[C@](C)([C@H](O)CC[C@@]1(C)O)[C@@H]2O |  | ATCC 22019 | >256 µg/mL
Nn1c(SCC(O)(Cn2cncn2)c2ccc(Cl)cc2Cl)nnc1-c1cccc(Br)c1 |  | ATCC 22019 | >64 µg/mL
CC1=C2C3=C4[C@](C)([C@@H]5C[C@@H]5[C@@]4(O)C[C@@H]4[C@]35OC(=O)C3=C5C[C@H]5[C@](O)(COC(=O)/C(C)=C/COC(=O)CCC(=O)OC3)[C@H]3C[C@H]3[C@]45C)[C@H](O)[C@]2(O)OC1=O |  | ATCC 22019 | >256 µg/mL
CC1CC2=C(O1)c1ccccc1C(=O)C2=O |  | Clinical isolate | 16 µg/mL
O=C(/C=C/c1ccc(Cl)c(Cl)c1)c1c[nH]c2ccccc12 |  | NRRL Y-12696 | 25 µg/mL
Cc1ccc(C(O)c2cccc(C(=O)CCn3ccnc3)c2)cc1 |  | RTCC 1079 | 64 µg/mL
Nn1c(SCC(O)(Cn2cncn2)c2ccc(F)cc2F)nnc1-c1ccccc1 |  | ATCC 22019 | >64 µg/mL
CC1=C2C3=C4[C@](C)([C@@H]5C[C@@H]5[C@@]4(O)C[C@@H]4[C@]35OC(=O)C3=C5C[C@H]5[C@](O)(COC(=O)/C(C)=C/COC(=O)CCC(=O)OC3)[C@H]3C[C@H]3[C@]45C)[C@@H](O)[C@]2(O)OC1=O |  | ATCC 22019 | >256 µg/mL
Cc1ccccc1N/N=c1/sc2nnc(-c3ccncc3)n2nc1C |  | ATCC 22019 | >100 µg/mL
O=C(CCn1ccnc1)c1cccc(O)c1 |  | RTCC 1079 | >64 µg/mL
COC(=O)c1cc(O)c(O)c2oc3cc(OC)cc(O)c3c(=O)c12 |  | ATCC 22019 | 15.7 µg/mL
OC(CCn1ccnc1)c1ccc(Br)cc1 |  | RTCC 1018 | 64 µg/mL
Cc1ccc(N2N=C(c3c[nH]c4ccccc34)CC2c2cccc(Cl)c2Cl)cc1 |  | NRRL Y-12696 | 200 µg/mL
CC(C)(O)c1cn(-c2ccc(Cl)cc2)nn1 |  | URM 4804 | 128 µg/mL
CCC(C)CC(C)CCCCCCCCC(=O)N[C@H]1C[C@@H](O)[C@H](NCCN)NC(=O)[C@@H]2[C@@H](O)CCN2C(=O)[C@H]([C@H](O)CCN)NC(=O)[C@H]([C@H](O)[C@@H](O)c2ccc(O)cc2)NC(=O)[C@@H]2C[C@@H](O)CN2C(=O)[C@H]([C@@H](C)O)NC1=O |  | ATCC 22019 | 0.5 µg/mL
O=C(/C=C/c1c(Cl)cccc1Cl)c1c[nH]c2ccccc12 |  | NRRL Y-12696 | 25 µg/mL
Cc1ccc(-c2nnc(SCC(O)(Cn3cncn3)c3ccc(Cl)cc3Cl)n2N)cc1 |  | ATCC 22019 | >64 µg/mL
CC(=O)N1CCN(c2ccc(OC[C@H]3CO[C@](Cn4ccnc4)(c4ccc(Cl)cc4Cl)O3)cc2)CC1 |  | ATCC 22019 | 3 µg/mL
N=c1oc2ccccc2c2csc(N)c12 |  | ATCC 22019 | 32 µg/mL
O=C(CCn1ccnc1)c1cccc(C(O)c2ccc(Cl)c(Cl)c2)c1 |  | RTCC 1018 | 32 µg/mL
CCOc1ccc2nc3cc(N=C4NC(=O)/C(=C\c5ccc([N+](=O)[O-])o5)S4)ccc3c(N)c2c1 |  |  | 10 µg/mL
CC1=C2C[C@@H]3[C@](C)(CCC[C@@]3(C)O)C[C@]2(O)OC1=O |  | ATCC 22019 | >256 µg/mL
OC(CCn1ccnc1)c1cccc(C(O)c2ccc(Cl)cc2)c1 |  | RTCC 1018 | >64 µg/mL

Repeating the final 4 entries:

compound	conditions	strain	result
O=C(CCn1ccnc1)c1cccc(C(O)c2ccc(Cl)c(Cl)c2)c1		RTCC 1018	32 µg/mL
CCOc1ccc2nc3cc(N=C4NC(=O)/C(=C\c5ccc([N+](=O)[O-])o5)S4)ccc3c(N)c2c1			10 µg/mL
CC1=C2C[C@@H]3[C@](C)(CCC[C@@]3(C)O)C[C@]2(O)OC1=O		ATCC 22019	>256 µg/mL
OC(CCn1ccnc1)c1cccc(C(O)c2ccc(Cl)cc2)c1		RTCC 1018	>64 µg/mL